{
  "source": "patent US10335482B2",
  "about": "(priority 2012, dated 2019)",
  "note": "For some assays here: End groups of sequences in plain letters are not given here. For some assays here: Strings that start with PEPTIDE1 are HELM notation: dots part the residues, brackets hold end groups and non-standard residues.",
  "data": [
    {"test": "Fmoc solid-phase peptide synthesis; Tenta Gel P RAM, theoretical loading 0.20 meq/g", "settings": "whole synthesis, analytical HPLC", "values": [
      {"substance": "KFIIPNIFSALGGAISYDLNTNILNCI", "final HPLC purity": "more than 80%"},
      {"substance": "KFIIPNIFSALSGGGAISYDLNTFLNCIG", "final HPLC purity": "more than 80%"},
      {"substance": "RNIPIPVGDIYGGGDIYKRWQALCL", "final HPLC purity": "85%"}
    ]},
    {"test": "general procedure: Fmoc solid-phase peptide synthesis; Tenta Gel P RAM, theoretical loading 0.20 meq/g", "settings": "whole synthesis, analytical HPLC", "values": [
      {"substance": "KALGPGATLQTPWTACQGVG-NH2", "final HPLC purity": "87%"},
      {"substance": "PEPTIDE1{K.A.L.G.P.G.A.T.L.Q.T.P.W.T.A.C.Q.G.V.G.[am]}|PEPTIDE2{W.I.I.P.G.L.N.P.L.V.G.G.G.K.L.Y.S.P.T.S.I.L.C.G.[am]}$PEPTIDE1,PEPTIDE2,16:R3-23:R3$$$V2.0", "final HPLC purity": "92%"},
      {"substance": "RAIPIPAGTLLSGGGRAIYKRTAILG", "final HPLC purity": "more than 95%"},
      {"substance": "RALGPAATLQTPWTASLGVG", "final HPLC purity": "more than 95%"},
      {"substance": "RFIIPNIFTALSGGRRALLYGATPYAIG", "final HPLC purity": "more than 95%"},
      {"substance": "RWLLLGLNPLVGGGRLYSPTSILG", "final HPLC purity": "more than 95%"},
      {"substance": "WIIPGLNPLVGGGKLYSPTSILCG-NH2", "final HPLC purity": "95%"}
    ]},
    {"test": "general procedure: Fmoc solid-phase peptide synthesis; Tenta Gel P RAM, theoretical loading 0.20 meq/g", "settings": "whole synthesis, scale 15 mmoles (A-chain) and 30 mmoles (B-chain)", "units": {"isolated mass": "g"}, "values": [
      {"substance": "(H-Gly-Ala-Lys-Arg-Arg-Val-Val-Gly-Gly-Cys(2-oxo-ethyl)-Gly-Gly-Ala-Lys-Arg-Arg-Val-Val-Gln-Arg-Glu-Lys-Arg-Ala-Gly-Glu-Arg-Glu-Lys-Arg-Ala-NH2)(H-Gly-Lys-Gly-Gly-Ile-Glu-Glu-Glu-Gly-Gly-Arg-Asp-Arg-Asp-Arg-Gly-Gly-Gln-Asp-Arg-Asp-Arg-NH2), acetate salt (amide bond between Cys(2-oxo-ethyl)^10 (A-chain) and Lys^2 (B-chain))", "isolated mass": 16.6}
    ]}
  ]
}
